# This is a selection; strong and weak results do not stand in their true shares. Activity calls are given as the source filed them.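 How the source made its calls: active means inhibition above the screen-wide mean plus 3 SD (cut at about 13% in these data); inactive means the rest.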
# Test system: HIV-1 integrase (with human LEDGF/p75)
# Experiment: blockers of LEDGF/p75-dependent integrase strand transfer – biochemical, TR-FRET, high throughput, primary screen (AID 743269);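 further: signal is the Cy5 over europium emission ratio at 671 and 618 nm; 0% = plate median of compound wells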
# Conditions: TR-FRET IN-LEDGF/p75 DNA integration, Eu/Cy5; at 3.7 µM; stronger effect = higher value
row,SMILES,inhibition
1,O=C(O)c1ccccc1[As](=O)(O)O,inactive: -5.92%
2,CC(=O)Nc1ccc([As](=O)(O)O)cc1,inactive: 0.19%
3,CCCC1OP(N)(=O)OCC1CC (stereo unspecified),inactive: 0.83%
4,CN(C)P(=O)(N(C)C)n1c(Nc2ccccc2)nnc1-c1ccccc1,inactive: 4.13%
5,O=P(Nc1nc2ccc(Cl)cc2s1)(c1ccccc1)c1ccccc1,inactive: 9.45%
6,CCOP(=O)(Nc1ccccc1)OCC,inactive: 2.36%
7,Cc1cc(SC(NC(=O)c2ccc(F)cc2)C(Cl)(Cl)Cl)ncn1 (stereo unspecified),inactive: 0.41%
8,Cc1ccc(NP(=O)(Oc2ccccc2F)Oc2ccccc2F)nc1,inactive: 2.01%
9,CN(C(=O)Cc1ccc(Cl)c(Cl)c1)[C@H]1CCCC[C@@H]1N1CCCC1,inactive: -0.75%
10,CCn1c(=O)n(C2CCN(CC3CCCCCCC3)C[C@H]2CO)c2ccccc21 (stereo partly specified),inactive: 1.32%
11,CN(C(=O)Cc1ccccc1)C1CC[C@@]2(CCCO2)C[C@@H]1N1CCCC1 (stereo partly specified),inactive: -1.18%
12,CCN(N=Nc1nonc1N)c1nonc1N,inactive: -1.43%
13,Nc1cccc2ccc([As](=O)(O)O)cc12,active: 32.9%
14,NC(=O)c1cc([N+](=O)[O-])cc([N+](=O)[O-])c1N,inactive: 3.31%
15,CN(C(=O)Cc1ccc(Cl)c(Cl)c1)[C@H]1CCCC[C@H]1N1CCCC1,inactive: 5.08%
16,Cc1ccc(N/C(=N/P(=O)(N2CCOCC2)N2CCOCC2)N2CCOCC2)cc1,inactive: 4.76%
17,COc1ccccc1OP(=O)(Nc1ccc(C)cn1)Oc1ccccc1OC,inactive: -7.3%
18,Cc1ccc(OP(=O)(Nc2nccs2)Oc2ccc(C)cc2)cc1,inactive: 0.4%
19,Clc1ccc(Cl)c(NC2=NCC(CBr)S2)c1 (stereo unspecified),inactive: -2.37%
20,CN1CCCC(OC(=O)C(c2ccccc2)c2ccccc2)C1 (stereo unspecified),inactive: 2.69%
21,CC(C)CC(=O)NC(Sc1ccc(Cl)cc1)C(Cl)(Cl)Cl (stereo unspecified),inactive: -6.07%
22,Nc1cc(N)c2nonc2c1[N+](=O)[O-],inactive: -1.86%

row,SMILES,inhibition
1,Oc1ccccc1CNc1ccccn1,inactive: 0.18%
2,O=C(NC(Sc1ccncn1)C(Cl)(Cl)Cl)c1ccccc1 (stereo unspecified),inactive: -5.11%
3,COc1ccc(C2=NCC(CBr)S2)cc1 (stereo unspecified),inactive: -2.53%
4,O=[N+]([O-])c1cccc2n[nH]nc12,inactive: -2.58%
5,CC(=O)N1C2C3N(C(C)=O)C1C1N(C(C)=O)C(C(N1C(C)=O)N3C(C)=O)N2C(C)=O,inactive: 0.17%
6,Cc1ccc(NP(=O)(Oc2ccccc2)Oc2ccccc2)nc1,inactive: -0.54%
7,CCc1nc2c(n1)c1c(non1O)c1c2no[n+]1[O-],inactive: -5.8%
8,O=[N+]([O-])c1cc([N+](=O)[O-])c(CCNc2ccccc2)c([N+](=O)[O-])c1,inactive: -4.84%
9,Nc1ccc([As](=O)(O)c2ccc(N)cc2)cc1,inactive: 0.45%
10,C[N+]1=C2C=CC=CC=C2SC12C([N+](=O)[O-])=CC([N+](=O)[O-])=C[C-]2[N+](=O)[O-] (stereo unspecified),inactive: 3.87%
11,CCN(/C(=N/P(=O)(N1CCOCC1)N1CCOCC1)N1CCOCC1)c1ccc(OC)cc1,inactive: 4.36%
12,CC(C)=N/N=C(\N)N[N+](=O)[O-],inactive: -0.98%
13,CC(C)c1nc(Nc2ccccc2)n(P(=O)(N(C)C)N(C)C)n1,inactive: 1.59%
14,CN(C)C(=O)OCCc1n(C)cc[n+]1C,inactive: 1.05%
15,c1cc(-c2nn[nH]n2)ccc1-c1nn[nH]n1,inactive: -2.95%
16,CC1CCN(C(=O)Oc2c(Cl)cc(Cl)c3cccnc23)CC1,inactive: -2%
17,O=P1(N(CCCl)CCCl)OCCCS1 (stereo unspecified),inactive: -4.25%
18,O=C(Nc1cc([As](=O)(O)O)ccc1O)c1ccccc1,inactive: 8.83%
19,CC(C)(C)C(=O)NC(Sc1ccncn1)C(Cl)(Cl)Cl (stereo unspecified),inactive: 1.94%
20,O=[N+]([O-])c1ncn(CCn2ncnc2[N+](=O)[O-])n1,inactive: -1.62%
21,O=[N+]([O-])c1cccc(NC2=NCC(CBr)S2)c1 (stereo unspecified),inactive: 4.14%
22,COC(=O)C1(C)COP(=O)(Nc2ccccc2)OC1 (stereo unspecified),inactive: -7.2%

row,SMILES,inhibition
1,O=C(O)CNc1ccc([As](=O)(O)O)cc1,inactive: -4.79%
2,Nc1ccc(CCCCOc2ccccc2)cc1,inactive: -2.12%
3,COc1ccc(N)c([N+](=O)[O-])c1[N+](=O)[O-],inactive: -1.3%
4,O=P(Nc1ccccn1)(c1ccc(Br)cc1)c1ccc(Br)cc1,inactive: -2.34%
5,CN(C)C1(CNC(=O)c2ccc(Cl)c(S(N)(=O)=O)c2)CCCCC1,inactive: -0.07%
6,O=P(Nc1nc2ccccc2s1)(c1ccccc1)c1ccccc1,inactive: 1.68%
7,C[C@H]1OP(=O)(Oc2ccccc2)[C@H](O)[C@H](O)[C@H]1N=[N+]=[N-] (stereo partly specified),inactive: -1.43%
8,O=[N+]([O-])c1ncn(CCn2cnc([N+](=O)[O-])n2)n1,inactive: -5.07%
9,CC(=O)NC(SC(=S)N(C)C)C(Cl)(Cl)Cl (stereo unspecified),inactive: 0.64%
10,O=[As](O)(c1ccccc1)c1ccc(O)cc1,inactive: 4.4%
11,C/C(N)=N\P(=O)(OCc1ccccc1)OCc1ccccc1,inactive: 5.78%
12,Nc1ccc([As](=O)(O)c2ccc([N+](=O)[O-])cc2)cc1,inactive: 2.68%
13,C(Cc1nn[nH]n1)Cc1nn[nH]n1,inactive: 1.78%
14,O=C(OC1CN2CCC1CC2)c1cccc(Cl)c1 (stereo unspecified),inactive: -0.39%
15,CC(C)C(=O)NC(Sc1ccccc1)C(Cl)(Cl)Cl (stereo unspecified),inactive: 2.33%
16,O=P(Nc1nccs1)(c1ccccc1)c1ccccc1,inactive: -0.17%
17,c1nnnn1CCn1cnnn1,inactive: -1%
18,O=P1(Nc2nc3ccc(Cl)cc3s2)COc2ccccc2O1 (stereo unspecified),inactive: 2.65%
19,CCOc1ccc(C2=NCC(CBr)S2)cc1 (stereo unspecified),inactive: 1.6%
20,CCc1cc(O)c([N+](=O)[O-])c(C)c1[N+](=O)[O-],inactive: 1.95%
21,CC(C)(C)C(=O)NC(Sc1ccccc1)C(Cl)(Cl)Cl (stereo unspecified),inactive: 0.8%
22,N#C/C(=C\c1ccc(N(CCBr)CCBr)cc1)C(N)=O,inactive: 2.16%
